Assay results published in patent US10345292B2, “Mammalian cell lines expressing functional nematode acetylcholine receptors and use thereof for high-throughput screening assays” (priority 2014, dated 2019).

System: Hco ACR-16/hRIC3 stable cell line (Flp-In-293-Hco ACR-16 hRic3)
Assay: Video-imaging fluorescence Ca2+ measurement (Fura-2 AM)
Type: cell-based, Haemonchus contortus
Conditions: Epibatidine 300 nM following pre-incubation of 10 μM PNU-120596

Clc1ccc(C2CC3CCC2N3)cn1 (centres unmarked) [Epibatidine]
Reaction Time, Mean: 17.69 | Reaction Time, Median: 15.03
